{
  "source": "patent US10376499B2",
  "about": "“Combination therapy for treatment of resistant bacterial infections” (priority 2014, dated 2019)",
  "tested_on": "Klebsiella pneumoniae",
  "experiment": "MIC, recent Enterobacteriaceae clinical isolates: Klebsiella pneumoniae (Examples 7, 11)",
  "conditions": "N 20",
  "note": "Counter-ions that a name gives are not always drawn.",
  "data": [
    {"smiles": "CC1=C[C@@H]2CN(C(=O)N2OS(=O)(=O)O)[C@@H]1C(N)=O", "note": "[Compound 1, (2S,5R)-2-carbamoyl-3-methyl-7-oxo-1,6-diazabicyclo[3.2.1]oct-3-en-6-yl hydrogen sulfate]", "values": [
      {"measurement": "MIC range", "result": "0.25 to 8", "unit": "µg/mL"}
    ]}
  ]
}
